Data: US20110251085A1, “IN VITRO METHOD TO DETERMINE WHETHER A DRUG CANDIDATE ACTIVE AGAINST A TARGET PROTEIN IS ACTIVE AGAINST A VARIANT OF SAID PROTEIN” (VIVALIS, priority 2008, published 2011)

Legend:
Assay in all cases: cell-based or functional assay
[1] = target: single chain NS4A-NS3 protease A156V mutant fused to Gal4 DBD (pVVS781) (yeast; hepatitis C virus genotype 1b), P26662
[2] = target: single chain NS4A-NS3 full length A156V mutant fused to Gal4 DBD (pVVS783) (yeast; hepatitis C virus genotype 1b), P26662
[3] = target: NS5BΔ21 (genotype 1b, native) fused to the yeast Gal4 DNA Binding Domain (pVVS478) (yeast; hepatitis C virus genotype 1b), P26662

B1: 3D-sensor V7-62 fused to the VP16 activation domain (peptide)
chain: WRPYYTVLCALASWH
modifications: not checked
- luciferase activity over background without the 3D sensor-VP16AD (times background) [1]: 33

B2: 3D-sensor H5-34 fused to the VP16 activation domain (peptide)
chain: PSNHRQSTRSTPWLW
modifications: not checked
- luciferase activity over background without the 3D sensor-VP16AD (times background) [2]: 56

B3: 3D-sensor N21C272 fused to the VP16 activation domain (peptide)
chain: DGCARCVASVQLYGD
modifications: not checked
- Signal/Background [3]: 16
- luciferase activity over background without the 3D sensor-VP16AD (times background) [3]: 17
- luciferase expression (uninhibited signal) [3]: 115000 RLU
